Pooled drug test results. Numbers come from NIAID ChemDB, via PubChem.

All rows: tests in culture; agent: HIV-1; measure: EC50

An empty or dashed field is not shown. Lines come from different laboratories, so protocols vary. ECn is the concentration giving n% inhibition of infection, replication or growth.

structure | strain | conditions | cell line | changes | value
C[C@]1(CCP(=O)(O)O)CO[C@@H](n2cnc3c(N)ncnc32)C1 | LAI |  | PBMC |  | 22.2 µM
NC(=O)c1cccc(C[C@H]2C[C@H](Cc3ccccc3)N(C[C@@H](O)C[C@@H](Cc3ccccc3)C(=O)N[C@H]3c4ccccc4C[C@H]3O)C2=O)c1 |  |  | MT-4 + MT4 |  | 0.14 µM
O=c1[nH]cnc2c1ncn2[C@H]1CC[C@@H](CO)O1 | BCF06 |  | PBMC | RT-A98G K103R | 0.9 µM
CC(=O)OC(OC(C)=O)c1cc(C)c2c(c1)COP(=O)(OC[C@@H]1C=C[C@H](n3cc(C)c(=O)[nH]c3=O)O1)O2 |  |  | CEM |  | 0.16 µM
CC(C)=CCN1Cc2cc(Cl)cc3[nH]c(=S)n(c23)C[C@@H]1C |  |  | MT-4 | RT-M41L T215Y K101E | <3 µM
Nc1ccn([C@H]2CC[C@@H](CO)O2)c(=O)n1 | HXB2D (RT D67N K70R T215Y) |  | MT-2 | RT-D67N K70R T215Y | 0.006 µM
C[C@H](C/C=C/C(C)(C)O)[C@H]1CC[C@@]2(C)C3C(=O)C=C4C(CCC(=O)C4(C)C)[C@]3(C=O)CC[C@]12C | IIIB |  | C8166 |  | 3.7 µg/mL
S=C(NCCC1=CCCCC1)Nc1nccs1 | IIIB |  | PBMC |  | 0.03 µM
Nc1ncnc2c1ncn2[C@@H]1C=C[C@H](CO)O1 |  |  | PBMC |  | 0.38 µM
CCCCCOCCCCCCCC(=O)OC[C@H]1O[C@@H](n2cc(C)c(=O)[nH]c2=O)C[C@@H]1N=[N+]=[N-] | IIIB |  | CEM + CEM-SS |  | 0.017 µM
O=C(N[C@H]1c2ccccc2C[C@H]1O)[C@H](Cc1ccccc1)C[C@H](O)CN1C(=O)[C@@H](Cc2cccc(O)c2)C[C@@H]1Cc1ccccc1 |  |  | MT-4 + MT4 |  | 0.2 µM
CCNc1n[nH]c2ccc(CN3C(=O)N(Cc4ccc5[nH]nc(NCC)c5c4)[C@H](Cc4ccccc4)[C@H](O)[C@@H](O)[C@H]3Cc3ccccc3)cc12 | RF |  | MT-2 |  | <0.065 µM
O=c1[nH]cnc2c1ncn2[C@@H]1C=C[C@H](CO)O1 |  |  | PBMC |  | 5.5 µM
Cc1cccc(C)c1OCC(=O)N[C@@H](Cc1ccccc1)[C@@H](O)C[C@H](Cc1ccccc1)NC(=O)[C@H](C(C)C)N1CCCNC1=O | HXB2 WT |  | MT-4 |  | 0.0115 µM
Nc1nc2c(ncn2[C@@H]2C=C[C@H](CO)O2)c(=O)[nH]1 |  |  | PBMC |  | 14.1 µM
COc1ccc(S(=O)(=O)N(CC(C)C)C[C@@H](O)[C@H](Cc2ccccc2)NC(=O)O[C@H]2CCC[C@H]3O[C@@H]4OCC[C@@H]4[C@@H]23)cc1 | ERS104pre | multidrug-resistant | PBMC |  | 0.0008 µM
Cc1cn([C@H]2C=C[C@@H](CO)O2)c(=O)[nH]c1=O |  |  | CEM + CEM-SS |  | 0.049 µM
Nc1ncnc2c1ncn2CCOCP(=O)(O)O | IIIB |  | PBMC + H-PBMC |  | 2.5 µM
CC(C)=CCN1Cc2cc(Cl)cc3[nH]c(=S)n(c23)C[C@@H]1C | BCF02 |  | PBMC | RT-A98G V106I Y181C | >6.25 µM
Cc1cn([C@H]2C[C@H](N=[N+]=[N-])[C@@H](CO)O2)c(=O)[nH]c1=O | IIIB |  | CEM + CEM-SS |  | 0.01 µM
C[C@H](Cn1cnc2c(N)ncnc21)OCP(=O)(O)O | HXB2D (RT D67N K70R T215Y) |  | MT-2 | RT-D67N K70R T215Y | 0.0072 µM
Nc1nc2c(ncn2[C@@H]2CS[C@@H](CO)S2)c(=O)[nH]1 |  |  | MT-4 |  | >100 µg/mL
CCCCCCCCCCCCC(Br)C(=O)OC[C@H]1O[C@@H](n2cc(C)c(=O)[nH]c2=O)C[C@@H]1N=[N+]=[N-] | IIIB |  | CEM + CEM-SS |  | 0.1275 µM
CC1(C)O[C@H]2[C@H](n3cnc4c(N(C(=O)c5ccccc5)C(=O)c5ccccc5)ncnc43)O[C@](F)(CI)[C@H]2O1 |  |  |  |  | <10 µM
CC(C)Nc1cccnc1N1CCN(C(=O)c2cc3cc(NS(C)(=O)=O)ccc3[nH]2)CC1 | RT-MDR(RT-V106A) |  | PBMC | RT-V106A | 0.4 µM
Cc1c(O)cccc1C(=O)N[C@@H](CSc1ccccc1)[C@H](O)CN1C[C@H]2CCCC[C@H]2C[C@H]1C(=O)NC(C)(C)C | HXB2 WT |  | MT-4 |  | 0.026 µM
CC(=O)C[C@@H](C)[C@H]1CC[C@@]2(C)C3C(=O)C[C@@]45OC[C@]3(CC[C@]12C)C4CCC(=O)C5(C)C | IIIB |  | C8166 |  | 21.6 µg/mL
S=C(NCCc1ccc(Br)s1)Nc1ccccn1 | IIIB |  | PBMC |  | 0.015 µM
O=C1Nc2ccc(Cl)cc2C(C#Cc2ccccc2)(C2CC2)N1 | IIIB |  | MT-4 |  | <0.1 µM
Nc1nc2c(ncn2CCOCP(=O)(O)O)c(=O)[nH]1 | IIIB |  | CEM |  | 0.8 µM
O=C1N(Cc2cccc(CO)c2)[C@H](Cc2ccccc2)[C@H](O)[C@@H](O)[C@@H](Cc2ccccc2)N1Cc1cccc(CO)c1 | RF |  | MT-2/MT-4 + MT-2 |  | <0.0388 µM
Cc1cc(C#N)cc(C)c1Oc1nc(Nc2ccc(C#N)cc2)nc(N)c1Br | LAI |  | TZM-bl | E138Q | 0.004 µM
OC[C@@H]1SC[C@@H](n2cnc3c(Cl)ncnc32)S1 |  |  | MT-4 |  | >10 µg/mL
S=C(NCCc1ccc(Br)s1)Nc1nccs1 | IIIB |  | PBMC |  | 0.31 µM
Cc1cn([C@H]2C[C@H](N=[N+]=[N-])[C@@H](COC(=O)CCCCCCCCCCCCl)O2)c(=O)[nH]c1=O | IIIB |  | CEM + CEM-SS |  | 0.185 µM
O=c1[nH]cnc2c1ncn2[C@H]1CC[C@@H](CO)O1 | HXB2D (RT D67N K70R T215Y) |  | MT-2 | RT-D67N K70R T215Y | 0.0058 µM
Cc1cn([C@H]2C[C@H](N=[N+]=[N-])[C@@H](CO)O2)c(=O)[nH]c1=O | HXB2 WT |  | MT-4 |  | 0.016 µM
Nc1ccn([C@H]2C=C[C@@H](CO)O2)c(=O)n1 | LAV |  | PBMC |  | 0.005 µM
COC(=O)N[C@H](C(=O)N[C@@H](Cc1ccccc1)[C@@H](O)CN(Cc1ccc(-c2ccccn2)cc1)NC(=O)[C@@H](NC(=O)OC)C(C)(C)C)C(C)(C)C | BRU |  | MT-2 |  | 0.00275 µM
O=c1[nH]cnc2c1ncn2[C@H]1CC[C@@H](CO)O1 |  |  | MT-2 |  | 0.72 µM
c1ccc(CNCc2ccc(CN3CCCNCCNCCCNCC3)cc2)nc1 | BaL |  |  |  | >5 µg/mL
CC[C@@H](c1ccc(C(F)(F)F)cc1)N1CCN(C2(C)CCN(C(=O)c3c(C)ncnc3C)CC2)C[C@@H]1C | RU570 Clinical isolates |  | PBMC |  | <1 µM
Nc1n[nH]c2ccc(CN3C(=O)N(Cc4ccc5ccccc5c4)[C@H](Cc4ccccc4)[C@H](O)[C@@H](O)[C@H]3Cc3ccccc3)cc12 | RF |  | MT-2 | PR-S184V | <0.43 µM
Nc1ccn([C@H]2CC[C@@H](CO)O2)c(=O)n1 | BCF08 |  | PBMC | RT-A98G Y181C | 0.06 µM
Nc1ccn([C@@H]2CS[C@@H](CO)S2)c(=O)n1 |  |  | MT-4 |  | >100 µg/mL
C[C@H](CC(=O)CC(C)(C)O)[C@H]1CC[C@@]2(C)C3C(=O)[C@@H]4O[C@]45C(CCC(=O)C5(C)C)[C@]3(C=O)CC[C@]12C | IIIB |  | C8166 |  | 13.7 µg/mL
Cc1cn([C@H]2C[C@H](N=[N+]=[N-])[C@@H](CO)O2)c(=O)[nH]c1=O | IIIB |  | CBMC |  | 0.002 µM
CCO[C@@H]1O[C@]23CC(=O)C4[C@@]1(CC[C@]1(C)[C@@H]([C@H](C)CC(C)=O)CC[C@@]41C)C2CCC(=O)C3(C)C | IIIB |  | C8166 |  | 7.2 µg/mL
N#Cc1ccccc1C#CC1(C2CC2)NC(=O)Nc2ccc(Cl)cc21 | IIIB |  | MT-4 |  | <0.012 µM
Cc1cn([C@H]2C=C[C@@H](COP(=O)(OCc3ccccc3)OCc3ccccc3)O2)c(=O)[nH]c1=O |  |  | CEM + CEM TK- |  | 5.5 µM
CC(C)=CC(=O)C[C@@H](C)[C@H]1CC[C@@]2(C)C3[C@@H](O)C=C4C(CC[C@H](O)C4(C)C)[C@]3(C=O)CC[C@]12C | IIIB |  | C8166 |  | 12.5 µg/mL
CCCCCN1C(=O)N(Cc2ccc3[nH]nc(N)c3c2)[C@H](Cc2ccccc2)[C@H](O)[C@@H](O)[C@H]1Cc1ccccc1 | RF |  | MT-2 |  | <0.203 µM
Cc1cn([C@H]2C[C@H](N=[N+]=[N-])[C@@H](COC(=O)CCCCCCCCCc3ccccc3)O2)c(=O)[nH]c1=O | IIIB |  | CEM + CEM-SS |  | 0.1601 µM
Cc1cn([C@H]2C=C[C@@H](CO)O2)c(=O)[nH]c1=O |  |  | CEM |  | 0.24 µM
C=CCSS/C=C/CS(=O)CC=C |  |  | H9 |  | 25 µM
Cc1csc(NC(=S)NCCC2=CCCCC2)n1 | IIIB |  | PBMC |  | 0.008 µM
S=C(NCCc1ccc(Br)s1)Nc1ccc(Cl)cn1 | IIIB |  | PBMC |  | 0.012 µM
C=C1O[C@@H](n2cnc3c(N(Cc4ccccc4)Cc4ccccc4)ncnc32)C[C@@H]1OCc1ccccc1 |  |  |  |  | 4 µM
CC(C)(O)c1cccc(CN2C(=O)N(Cc3cccc(C(C)(C)O)c3)[C@H](Cc3ccccc3)[C@H](O)[C@@H](O)[C@H]2Cc2ccccc2)c1 | RF |  | MT-2/MT-4 + MT-2 |  | <0.0337 µM
Cc1cn([C@H]2C[C@H](N=[N+]=[N-])[C@@H](COP(=O)(OCc3ccccc3)OCc3ccccc3)O2)c(=O)[nH]c1=O |  |  | CEM + CEM TK- |  | >100 µM
Cc1ccc(NC(=S)NCCc2ccc(Br)s2)nc1 | IIIB |  | PBMC |  | 0.16 µM
C[C@H](Cn1cnc2c(N)ncnc21)OCP(=O)(O)O | LAI |  | TZM-bl |  | 16.1 µM
CCC[C@@H](c1ccc(C(F)(F)F)cc1)N1CCN(C2(C)CCN(C(=O)c3c(C)ncnc3C)CC2)C[C@@H]1C | RU570 Clinical isolates |  | PBMC |  | <0.00043 µM
S=C(NCCC1=CCCCC1)Nc1ccc(Cl)cn1 | A17 |  | PBMC | RT-K103N Y181C | 30 µM

A second listing of 9 rows from above:

structure	strain	conditions	cell line	changes	value
CC(C)=CCN1Cc2cc(Cl)cc3[nH]c(=S)n(c23)C[C@@H]1C	BCF02		PBMC	RT-A98G V106I Y181C	>6.25 µM
O=C1Nc2ccc(Cl)cc2C(C#Cc2ccccc2)(C2CC2)N1	IIIB		MT-4		<0.1 µM
Cc1cn([C@H]2C[C@H](N=[N+]=[N-])[C@@H](CO)O2)c(=O)[nH]c1=O	HXB2 WT		MT-4		0.016 µM
S=C(NCCc1ccc(Br)s1)Nc1ccccn1	IIIB		PBMC		0.015 µM
Cc1cn([C@H]2C=C[C@@H](COP(=O)(OCc3ccccc3)OCc3ccccc3)O2)c(=O)[nH]c1=O			CEM + CEM TK-		5.5 µM
C[C@]1(CCP(=O)(O)O)CO[C@@H](n2cnc3c(N)ncnc32)C1	LAI		PBMC		22.2 µM
Cc1cn([C@H]2C=C[C@@H](CO)O2)c(=O)[nH]c1=O			CEM + CEM-SS		0.049 µM
C=C1O[C@@H](n2cnc3c(N(Cc4ccccc4)Cc4ccccc4)ncnc32)C[C@@H]1OCc1ccccc1					4 µM
S=C(NCCC1=CCCCC1)Nc1nccs1	IIIB		PBMC		0.03 µM